Literature values in paper PMC5465072.

Amino acid sequences for entries named in this document (tags omitted). Residues count along the entry.
UniProt Q9H6X2, 33-321: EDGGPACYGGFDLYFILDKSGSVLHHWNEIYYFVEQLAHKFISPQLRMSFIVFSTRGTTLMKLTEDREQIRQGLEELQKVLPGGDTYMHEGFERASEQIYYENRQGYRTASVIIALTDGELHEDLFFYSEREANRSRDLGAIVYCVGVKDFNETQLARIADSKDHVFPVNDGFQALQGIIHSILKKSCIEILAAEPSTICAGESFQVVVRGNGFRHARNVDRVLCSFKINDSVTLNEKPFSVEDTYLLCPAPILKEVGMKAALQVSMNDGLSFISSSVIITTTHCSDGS

Target: TEM8 (Homo sapiens) (UniProt Q9H6X2)

For PA (from UniProt P13423), the Kd is given as 1100 nM.
